Measured values from several laboratories, pooled; numbers as filed in NIAID ChemDB.

Shared fields: enzyme or target tests; organism: HIV-1; protein: Reverse transcriptase; read-out: IC50

Rows are shuffled and stem from different studies.

CC(C)(C)c1ccc(-n2nnnc2SCC(=O)Nc2ccc(-c3ccc(OCC(=O)O)c(Cl)c3)cc2Cl)c(Cl)c1 ; strain: WT ; method: PicoGreen / fluorescence ; result: <1 µM
CC1C(Sc2nnnn2-c2cccc3ccccc23)C1c1ccccc1Cl ; changes: RT-K103N Y181C ; method: fluorescence ; result: ≥0.1 µM
CCN1c2ncc(CCOc3ccc(-c4c[n+]([O-])ccc4C)cc3C)cc2C(=O)N(C)c2cccnc21 ; changes: RT-K103N Y181C ; strain: IIIB ; method: nucleotide incorporation / radiometric ; result: <0.05 µM
CC(C)=CCN1Cc2cccc3[nH]c(=S)n(c23)C[C@@H]1C ; changes: RT-Y181C ; method: nucleotide incorporation ; result: 2.01 µM
CN(CC(=O)O)C(=O)c1ccc(NC(=O)CSc2nnc(Br)n2-c2ccc(C3CC3)c3ccccc23)c(Cl)c1 ; changes: RT-Y181C ; method: nucleotide incorporation / radiometric ; result: <0.05 µM
CC(C)(C)c1ccc(-n2nnnc2SCC(=O)Nc2ccc(OCC(=O)NCCC(=O)O)cc2Cl)c(Cl)c1 ; strain: WT ; method: PicoGreen / fluorescence ; result: <1 µM
O=C(CSc1nnnn1-c1c(Cl)cccc1Cl)Nc1ccccc1[N+](=O)[O-] ; method: fluorescence ; result: <0.05 µM
CC(C)(C#Cc1ccc(NC(=O)CSc2nnnn2-c2ccc(C(C)(C)C)cc2Cl)c(Cl)c1)CO ; strain: WT ; method: PicoGreen / fluorescence ; result: <1 µM
CN1CCN(c2cc(N)cc3c2CCN(c2nn4c(C5CC5)nnc4c4ccccc24)C3)CC1 ; strain: KER2008 ; method: RT activity / fluorescence ; result: 13.9 µM
CC(C)(C)c1ccc(-n2nnnc2SCC(=O)Nc2ccccc2Cl)c(Br)c1 ; changes: RT-K103N Y181C ; method: fluorescence ; result: 0.05–0.1 µM
CC(C)(C)c1ccc(-n2nnnc2SCC(=O)Nc2ccc(NC(=O)Cc3ccccn3)cc2Cl)c(Cl)c1 ; changes: RT-K103 Y181C ; method: PicoGreen / fluorescence ; result: <1 µM
CC(C)c1nnc2c3ccccc3c(N3CCc4ccc(NS(C)(=O)=O)cc4C3)nn12 ; strain: 98US_MSC5016 ; method: RT activity / fluorescence ; result: 1.44 µM
Cc1cc(O)c2c(c1)C(=O)c1cc(O)cc(O)c1C2=O ; method: RNase H / radiometric ; result: >100 µM
COC(=O)NS(=O)(=O)c1ccc(NC(=O)CSc2nnnn2-c2ccc(C3CC3)cc2Cl)c(Cl)c1 ; strain: WT ; method: PicoGreen / fluorescence ; result: <1 µM
COc1cc(O)c2c(c1)C(=O)c1cc(C)cc(O)c1C2=O ; method: RNase H / radiometric ; result: >100 µM
CCNC(=O)c1ccc(NC(=O)CSc2nnnn2-c2ccc(C)cc2Cl)c(Cl)c1 ; strain: WT ; method: PicoGreen / fluorescence ; result: <1 µM
Cc1cc(S(N)(=O)=O)ccc1NC(=O)COc1ccccc1C(=O)c1cc(Cl)cc(C#N)c1 ; method: fluorescence ; result: >100 µM
COc1ccc2c(C)ccc(-n3c(Br)nnc3SCC(=O)Nc3ccc(S(N)(=O)=O)cc3Br)c2c1 ; method: nucleotide incorporation / radiometric ; result: <0.05 µM
CCNCC(=O)Nc1ccc(-c2nc(=O)n(CCOC)c3c2oc2ccc(Cl)cc23)cc1 ; strain: BH10 ; method: PicoGreen / fluorescence ; result: 0.12 µM
O=C(COc1ccc(NC(=O)CSc2nnnn2-c2ccc(C3CC3)cc2Cl)c(Cl)c1)NCCc1ccccn1 ; changes: RT-K103 Y181C ; method: PicoGreen / fluorescence ; result: <1 µM
CCc1ccc(-n2c(Br)nnc2SCC(=O)Nc2ccc(C(=O)NCC(C)O)cc2Cl)c2ccccc12 ; changes: RT-Y188L ; method: nucleotide incorporation / radiometric ; result: 0.05–0.1 µM
COP(=O)(c1cc(C)cc(CCC#N)c1)c1c(C(N)=O)[nH]c2ccc(Cl)cc12 ; method: RT activity ; result: 0.343 µM
CC(C)=CCOc1cc(NC(=S)c2ccoc2C)ccc1Cl ; changes: RT-V106A ; result: 3.2 µM
O=C(CSc1nnnn1-c1ccccc1C(F)F)Nc1ccccc1[N+](=O)[O-] ; changes: RT-K103N Y181C ; method: fluorescence ; result: ≥0.1 µM
Cc1nnc2c3ccccc3c(N3CCc4ncccc4C3)nn12 ; strain: IIIB ; method: RT activity / fluorescence ; result: 1.85 µM
COc1ccc(/C=C/CSc2nc([C@H](C)c3c(F)cccc3F)c(C)c(=O)[nH]2)cc1 ; changes: Y181I ; method: RT activity / nucleotide incorporation ; result: 2.99 µM
CC(C)(O)C#Cc1ccc(NC(=O)CSc2nnnn2-c2c(F)ccc(C(F)(F)F)c2Cl)c(Cl)c1 ; strain: WT ; method: PicoGreen / fluorescence ; result: <1 µM
O=C(c1cc2ccccc2[nH]1)N1CCN(c2ncccc2NC2CCCC2)CC1 ; method: nucleotide incorporation ; result: <100 µM
CCN1c2ncc(CCOc3ccc(-c4cnccc4C)cc3C)cc2C(=O)N(C)c2cccnc21 ; strain: IIIB ; method: nucleotide incorporation / radiometric ; result: <0.05 µM
Nc1nc(Nc2ccc(Cl)c(Cl)c2)nn1S(=O)(=O)c1ccc2ccccc2c1 ; changes: Y181C/K103N ; strain: A17 ; method: luciferase / RT activity ; result: >1000 µM
CC(C)(C)c1ccc(-n2nnnc2SCC(=O)Nc2ccc(C#CC3CC3)cc2Cl)c(Cl)c1 ; changes: RT-K103 Y181C ; method: PicoGreen / fluorescence ; result: <1 µM
COc1c(-c2cc(C)n(-c3ccccc3)n2)c(O)c(S(=O)(=O)Oc2ccc([N+](=O)[O-])cc2)c2occc12 ; method: RT activity / radiometric ; result: 0.0000034 µM
CC(C)(C#Cc1ccc(NC(=O)CSc2nnnn2-c2ccc(C3CC3)cc2Cl)c(Cl)c1)NCc1nccs1 ; strain: WT ; method: PicoGreen / fluorescence ; result: <1 µM
Cc1cc(C2CC2)ccc1-n1c(Br)nnc1SCC(=O)Nc1ccc(S(N)(=O)=O)cc1Cl ; changes: RT-Y181C ; method: nucleotide incorporation / radiometric ; result: <0.05 µM
CCOC(=O)C(=O)CC(=O)/C=C/c1cccn1Cc1ccccc1Cl ; changes: N474A ; method: RNase H / radiometric ; result: 90 µM
CC(C)(C#Cc1ccc(NC(=O)CSc2nnnn2-c2cc(C(F)(F)F)cc(C3CC3)c2Cl)c(Cl)c1)OCCN1CCNCC1 ; changes: RT-K103 Y181C ; method: PicoGreen / fluorescence ; result: <1 µM
CS(=O)(=O)Nc1ccc2c(c1)CN(c1nn3c(C4CC4)nnc3c3ccccc13)CC2 ; strain: 98US_MSC5016 ; method: RT activity / fluorescence ; result: 0.74 µM
COc1c(-c2cc(C)n(C)n2)c(O)c(S(=O)(=O)OC2CCCCC2)c2occc12 ; method: RT activity / radiometric ; result: 0.0000049 µM
CC(C)Nc1cccnc1N1CCN(C(=O)c2cc3cc(OCc4ccccc4)ccc3[nH]2)CC1 ; method: nucleotide incorporation ; result: <100 µM
CC(C)(C#Cc1ccc(NC(=O)CSc2nnnn2-c2cc(C(C)(C)C)cc(Br)c2Cl)c(Cl)c1)NC(=O)CN1CCC(C(=O)O)CC1 ; strain: WT ; method: PicoGreen / fluorescence ; result: <1 µM
Cc1cc(S(N)(=O)=O)ccc1NC(=O)C(C)Sc1nnc(Br)n1-c1c(C)ccc2ccccc12 ; changes: RT-Y188L ; method: nucleotide incorporation / radiometric ; result: >0.1 µM
COc1c(-c2cc(C)on2)c(O)c(S(=O)(=O)OC2CCCCC2)c2occc12 ; method: RT activity / radiometric ; result: 0.0000063 µM
COc1c(C)cc(C(=O)N2CCN(c3ncccc3NC(C)C)CC2)cc1C ; method: nucleotide incorporation ; result: <100 µM
CC(C)=CCOc1cc(NC(=S)c2ccsc2C)ccc1Cl ; changes: RT-V106A ; result: 0.5 µM
Cc1ccc(-n2c(SCC(=O)Nc3ccc(S(=O)(=O)NC(C)C(=O)O)cc3Cl)nnc2C(F)F)c2c1CCCC2 ; changes: RT-Y181C ; method: nucleotide incorporation / radiometric ; result: >0.1 µM
C#Cc1ccc(NC(=O)CSc2nnnn2-c2ccc(C(C)(C)C)cc2Cl)c(Cl)c1 ; changes: RT-K103 Y181C ; method: PicoGreen / fluorescence ; result: <1 µM
COc1cc2c(cc1OC)CN(c1nn3c(C(F)F)nnc3c3ccccc13)CC2 ; strain: IIIB ; method: RT activity / fluorescence ; result: 2.49 µM
CC(C)(C#Cc1ccc(NC(=O)CSc2nnnn2-c2ccc(C3CC3)cc2Cl)c(Cl)c1)NCC1CC1 ; changes: RT-K103 Y181C ; method: PicoGreen / fluorescence ; result: <1 µM
CCN1c2ncc(CCOc3ccc(C(=O)Nc4ccc[n+]([O-])c4)cc3C)cc2C(=O)N(C)c2cccnc21 ; changes: RT-K103N Y181C ; strain: IIIB ; method: nucleotide incorporation / radiometric ; result: <0.05 µM
CC[C@H](C)[C@H](NC(=O)c1ccc(NC(=O)CSc2nnc(Br)n2-c2ccc(C3CC3)c3ccccc23)c(Cl)c1)C(=O)O ; changes: RT-Y181C ; method: nucleotide incorporation / radiometric ; result: 0.05–0.1 µM
Cc1ccc(-c2c(OCC(=O)Nc3ccc(C#CC(C)(C)O)cc3Cl)n[nH]c2C)c(Cl)c1 ; changes: RT-K103 Y181C ; method: PicoGreen / fluorescence ; result: <1 µM
COc1ccc(OS(=O)(=O)c2c(O)c(-c3cc(C)on3)c(OC)c3ccoc23)cc1 ; method: RT activity / radiometric ; result: 0.0000053 µM
O=C(c1cc2ccccc2[nH]1)N1CCN(c2ncccc2NCC2CC2)CC1 ; method: nucleotide incorporation ; result: <100 µM
Nc1nc(Nc2ccc(Cl)cc2)nn1S(=O)(=O)c1ccc2ccccc2c1 ; changes: Y181C/K103N ; strain: A17 ; method: luciferase / RT activity ; result: >1000 µM
CC(C)c1ccc(-n2c(SCC(=O)Nc3ccc(S(N)(=O)=O)cc3Cl)nnc2C(F)F)c2ccccc12 ; method: nucleotide incorporation / radiometric ; result: <0.05 µM
COc1c(C(=O)/C=C(/C)Nc2ccccc2)c(O)c(S(=O)(=O)Oc2ccc(F)cc2)c2occc12 ; method: RT activity / radiometric ; result: 0.0000067 µM
c1cnc2c(c1)CN(c1nn3c(C4CC4)nnc3c3ccccc13)CC2 ; strain: KER2008 ; method: RT activity / fluorescence ; result: 2.9 µM
O=C(CSc1nnnn1-c1ccc(C2CC2)cc1Cl)Nc1ccc(OCC(=O)N2CCC(C(=O)O)CC2)cc1Cl ; strain: WT ; method: PicoGreen / fluorescence ; result: <1 µM
C=[N+]([O-])c1ccccc1NC(=O)CNc1nnnn1-c1cccc2ccccc12 ; method: fluorescence ; result: ≥0.1 µM
CNS(=O)(=O)c1ccc(NC(=O)CSc2nnc(C(F)F)n2-c2ccc(C)c3ccccc23)c(Cl)c1 ; changes: RT-Y188L ; method: nucleotide incorporation / radiometric ; result: >0.1 µM
CCN1c2ncc(CCOc3ccc(NC(=O)c4ccc(C(=O)O)cn4)cc3C)cc2C(=O)N(C)c2cccnc21 ; changes: RT-K103N Y181C ; strain: IIIB ; method: nucleotide incorporation / radiometric ; result: <0.05 µM
CCCc1ccc(-n2c(Br)nnc2SCC(=O)Nc2ccc(S(N)(=O)=O)cc2Cl)c2ccccc12 ; changes: RT-Y181C ; method: nucleotide incorporation / radiometric ; result: <0.05 µM
Cc1cc(C)c(-n2nnnc2SCC(=O)c2ccccc2Cl)c(C)c1 ; method: fluorescence ; result: ≥0.1 µM
CCc1ccc(-n2c(SCC(=O)Nc3ccc(S(N)(=O)=O)cc3Cl)nnc2C(F)F)c2c1CCCC2 ; changes: RT-Y188L ; method: nucleotide incorporation / radiometric ; result: >0.1 µM
CC(C)(C#Cc1ccc(NC(=O)CSc2nnnn2-c2ccc(C(C)(C)C)cc2Cl)c(Cl)c1)C(=O)NCCN1CCOCC1 ; strain: WT ; method: PicoGreen / fluorescence ; result: <1 µM
CCc1ccc(-n2c(Br)nnc2SCC(=O)Nc2ccc(C(=O)O)cc2Cl)c2ccccc12 ; changes: RT-Y181C ; method: nucleotide incorporation / radiometric ; result: <0.05 µM
CC(CC(=O)O)NC(=O)COC(C)(C)C#Cc1ccc(NC(=O)CSc2nnnn2-c2ccc(C(C)(C)C)cc2Cl)c(Cl)c1 ; strain: WT ; method: PicoGreen / fluorescence ; result: <1 µM
CCCCNC(=O)c1ccc(NC(=O)CSc2nnc(Br)n2-c2ccc(CC)c3ccccc23)c(Cl)c1 ; changes: RT-Y181C ; method: nucleotide incorporation / radiometric ; result: <0.05 µM
COc1c(-c2cc(C)[nH]n2)c(O)c(S(=O)(=O)Oc2ccc(F)cc2)c2occc12 ; method: RT activity / radiometric ; result: 0.0000041 µM
CC(C)(C)c1ccc(-n2nnnc2SCC(=O)Nc2ccc(-c3ccc(/C=C/C(=O)O)s3)cc2Cl)c(Cl)c1 ; strain: WT ; method: PicoGreen / fluorescence ; result: <1 µM
Cc1cc(C2CC2)cc(C)c1-n1c(Br)nnc1SCC(=O)Nc1ccc(C(=O)O)cc1Cl ; method: nucleotide incorporation / radiometric ; result: <0.05 µM
CC(C)(C)c1ccc(-n2nnnc2SCC(=O)Nc2ccc(-c3ccc(OCCN4CCC(C(=O)O)CC4)cc3)cc2Cl)c(Cl)c1 ; changes: RT-K103 Y181C ; method: PicoGreen / fluorescence ; result: <1 µM
CCc1ccc(-n2c(Br)nnc2SCC(=O)Nc2ccc(C(=O)N3CCC(O)CC3)cc2Cl)c2ccccc12 ; changes: RT-Y188L ; method: nucleotide incorporation / radiometric ; result: >0.1 µM

ICn: concentration for n% inhibition. a–b is a range or a potency band.